# Test results published in the supplement of paper PMC9492666.
# The entries are a selection whose mix differs from that of the whole data set.
# How the values were obtained:
# Conditions in all cases: 72 h
# HCC1937 [1] = assay: relative cell viability, compound + erastin, vs DMSO (fraction of DMSO control); higher = less growth inhibition
# MDA-MB-231 [2] = assay: as above
# HCC1937 [3] = assay: relative cell viability, compound + RSL3, vs DMSO (fraction of DMSO control); higher = less growth inhibition
# MDA-MB-231 [4] = assay: as above
# HCC1937 [5] = assay: relative cell viability, compound alone, vs DMSO (fraction of DMSO control); higher = less growth inhibition
# MDA-MB-231 [6] = assay: as above
# 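Wherever relative cell viability, compound + RSL3, vs DMSO is given: breast cancer cell viability read out with the CCK-8 kit after co-treatment of each compound with the ferroptosis inducer RSL3.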
# 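Wherever relative cell viability, compound + erastin, vs DMSO is given: viability read by CCK-8 kit in 96-well plates, part of a combination screen pairing lipid-metabolism-targeting compounds with erastin.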
# 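Wherever relative cell viability, compound alone, vs DMSO is given: viability read out with the CCK-8 kit in 96-well plates, screening a set of 303 compounds acting on lipid metabolism targets.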
compound,measurement,setting,value
COc1ccc(C(=O)CBr)cc1 [PTP Inhibitor II] + CCOc1ccccc1-n1c(C(C)N2CCN(C(=O)COc3ccc(Cl)cc3)CC2)nc2ccccc2c1=O [erastin],relative cell viability,HCC1937 [1],0.764
same,relative cell viability,MDA-MB-231 [2],0.9
O=P([O-])([O-])F.[Na+].[Na+] [Disodium monofluorophosphate] + COC(=O)c1ccc([C@H]2c3[nH]c4ccccc4c3C[C@H](C(=O)OC)N2C(=O)CCl)cc1 [RSL3],relative cell viability,HCC1937 [3],0.83
same,relative cell viability,MDA-MB-231 [4],0.592
O=P([O-])([O-])F.[Na+].[Na+] [Disodium monofluorophosphate],relative cell viability,HCC1937 [5],0.954
same,relative cell viability,MDA-MB-231 [6],0.946
O=P([O-])([O-])F.[Na+].[Na+] [Disodium monofluorophosphate] + CCOc1ccccc1-n1c(C(C)N2CCN(C(=O)COc3ccc(Cl)cc3)CC2)nc2ccccc2c1=O [erastin],relative cell viability,HCC1937 [1],0.946
same,relative cell viability,MDA-MB-231 [2],1.07
COc1ccc(C(=O)CBr)cc1 [PTP Inhibitor II] + COC(=O)c1ccc([C@H]2c3[nH]c4ccccc4c3C[C@H](C(=O)OC)N2C(=O)CCl)cc1 [RSL3],relative cell viability,HCC1937 [3],0.507
same,relative cell viability,MDA-MB-231 [4],0.623
COc1ccc(C(=O)CBr)cc1 [PTP Inhibitor II],relative cell viability,HCC1937 [5],0.711
same,relative cell viability,MDA-MB-231 [6],0.896
